# Patent publication US7259172B2, “Inhibitors of β-lactamase” (priority 1999, dated 2007)
# Protein sequences, listed by entry. Tags and fused reporters are not part of them. Residues count along the entry.
# UniProt P05364, 21-381 limits assumed: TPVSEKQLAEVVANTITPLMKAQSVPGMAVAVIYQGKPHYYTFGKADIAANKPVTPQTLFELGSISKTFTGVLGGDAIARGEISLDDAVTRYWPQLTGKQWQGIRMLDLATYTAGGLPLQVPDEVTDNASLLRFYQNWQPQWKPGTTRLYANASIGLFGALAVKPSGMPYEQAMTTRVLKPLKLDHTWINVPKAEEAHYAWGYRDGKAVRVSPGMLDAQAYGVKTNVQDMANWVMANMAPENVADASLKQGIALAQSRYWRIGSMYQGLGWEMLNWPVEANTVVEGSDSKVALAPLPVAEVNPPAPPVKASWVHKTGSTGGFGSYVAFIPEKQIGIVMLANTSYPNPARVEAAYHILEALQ
# UniProt P52700, 34-290 limits assumed: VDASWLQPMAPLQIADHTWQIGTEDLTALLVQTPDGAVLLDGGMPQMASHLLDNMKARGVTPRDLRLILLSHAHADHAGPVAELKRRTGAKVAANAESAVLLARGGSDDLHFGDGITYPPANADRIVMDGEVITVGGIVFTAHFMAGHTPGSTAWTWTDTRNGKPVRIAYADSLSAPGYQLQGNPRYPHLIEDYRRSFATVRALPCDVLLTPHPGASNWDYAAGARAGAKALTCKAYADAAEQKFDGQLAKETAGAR
# Like-named read-outs stand apart in the source and are kept apart here.
# Key:
# [1] = biological target: P99 β-lactamase (class C) (Enterobacter cloacae, UniProt P05364)
# [2] = tested on: Enterobacter cloacae [ATCC #23355]; settings: for Synergy Class C E. Cl: ratio antibiotic MIC without/with inhibitor, inhibitor 10 μg/mL; for Synergy Class C E. Cl (ratio of antibiotic MIC without inhibitor to MIC with inhibitor): Table 2, inhibitor concentration 10 μg/mL, Enterobacter cloacae [ATCC #23355]; for Synergy (at μg/mL) Class C E. Cl 10/1: tested form: drawn as the phosphonate monoanion, coun
# [3] = tested on: TEM R+ β-lactamase (class A); experiment: Determination of IC50, nitrocefin hydrolysis by TEM R+ β-lactamase; type: biochemical; settings: read-out: IC50 (μM) “A”, Table 2
# Description: Enzyme activity against the commercially available substrate, nitrocefin, was measured in the presence of various inhibitor concentrations. The P99 β-lactamase enzyme (1 mg/mL) was dissolved in 20 mM MOPS buffer at pH 7.50, and diluted 200-fold in the same buffer containing 0.1% BSA. Nitrocefin was stored as a 100 μM stock solution in 20 mM MOPS at pH 7.5. Stock solutions of test compounds were prepared in 10 mM MOPS at pH 7.5 (approximately 1 mg/mL)
# A typical assay contained 300 μL of 100 μM nitrocefin, x μL of inhibitor test compound, 110-x μL of MOPS, and 10 μL of P99 β-lactamase. The reaction at 25° C. was followed spectrophotometrically at 482 nm. IC50 values were determined from the dose-response plots of the initial rates vs. inhibitor concentration
# TEM R+ and L-1 […]-lactamases were assayed as described above for P99 […]-lactamase.
# L-1 β-lactamase = L-1 β-lactamase (Stenotrophomonas maltophilia, UniProt P52700); experiment: Determination of IC50, nitrocefin hydrolysis by L-1 β-lactamase; settings: read-out: IC50 (μM) “B”; Table 2; Class B β-lactamase [L-1]
# [4] = tested on: Haemophilus influenzae [ATCC #43163]; experiment: Antibiotic MIC in presence and absence of β-lactamase inhibitor (synergy); type: cell-based; settings: inhibitor at 10 μg/mL (first or only figure of cell); tested form: drawn as the phosphonate monoanion; coun
# From the text: (§1) An increasing number of organisms produce enzymes that inhibit the actions of β-lactam antibiotics, so-called β-lactamases. The “strength” of β-lactam antibiotics can be improved by pairing them with compounds that inhibit bacterial enzyme β-lactamases. The Minimum Inhibitory Concentration (MIC) test determines the lowest concentration of an antibiotic at which no visible bacterial growth occurs. This test permits comparisons to be made between bacterial growth in the presence of antibiotic alone (control) and bacterial growth in the presence of both an antibiotic and a novel (test) compound.
# (§2) • β-lactamase positive strains • β-lactam antibiotics • β-lactamase inhibitor compounds • appropriate bacterial growth medium β-Lactamase Positive Strains • Klebsiella oxytoca [ATCC#51983] • Staphylococcus aureus [MGH: MA#50848] • Enterococcus faecalis [ATCC#49757] • Enterobacter cloacae [ATCC#23355] • Haemophilus influenzae [ATCC#43163] β-Lactam antibiotics
# (§3) Frozen bacterial stocks were thawed to room temperature, and a few drops were placed on an appropriate plate; chocolate agar was used for H. influenzae, blood agar was used for all others. The plates were incubated overnight at 37° C. in air, except for H. influenzae, which was incubated in a CO2 incubator. The cultures were subcultured the following day, and the subcultures were again incubated overnight
# (§4) A sterile loop was touched to 3 colonies and used to inoculate 1 mL of Mueller-Hinton Broth (MHB). The bacterial solution was diluted 18.8-fold (20 μL of bacterial solution in […] of broth). 5 μL of the resultant inoculum solution contained ˜4×10^4 CFU/mL. Confirmation of the inoculum was performed by preparing a serial dilution to give 100 μL of a 5000-fold dilution, all of which was then plated onto an appropriate plate. After incubation overnight at 37° C., the plate had 75-150 colonies.
# (§5) In each well of a 96-well microtiter plate was combined 5 μL of bacterial inoculum, 90 μL of antibiotic dilutions, and 5 μL of test compound (or media for determination of the MIC of the antibiotic in the absence of test compound). Each plate included 2 wells with no bacterial inoculum (negative control) and 2 wells with no test compound and no antibiotic (positive control). The plate was covered and incubated with gentle shaking for 16-20 hours at 37° C. in air (CO2 for H. influenzae). Absorbance was read at 540 nm (Multiskan Titertek mcc/340). Bacterial growth was scored as follows: […]
# (§6) The impact of the novel β-lactamase inhibitors is expressed as the ratio of the MIC determined in the absence of β-lactamase inhibitor to the MIC determined in the presence of the specified concentration of the β-lactamase inhibitor test compound. […]
# [5] = tested on: Staphylococcus aureus [MGH:MA #50848]; experiment: as above; type: cell-based
# From the text: as §1, §2, §3, §4, §5, §6
# [6] = tested on: Enterococcus faecalis [ATCC#49757]; experiment: as above; type: cell-based; settings: Table 4; inhibitor 10 μg/ml; tested form: drawn as the phosphonate mono-anion; cou
# From the text: as §1, §2, §3, §4, §5, §6
# [7] = tested on: Enterobacter cloacae (derepressed); experiment: Synergy against highly resistant β-lactamase positive strains; type: cell-based; settings: Table 4, inhibitor 10 μg/ml, tested form: drawn as the phosphonate mono-anion, cou
# Description: as §3
# A sterile loop was touched to 3 colonies and used to inoculate 1 mL of Mueller-Hinton Broth (MHB). The bacterial solution was diluted 18.8-fold (20 μL of bacterial solution in […] of broth). 5 μL of the resultant inoculum solution contained ˜4×10^4 CFU/mL. […]
# In each well of a 96-well microtiter plate was combined 5 μL of bacterial inoculum, 90 μL of antibiotic dilutions, and 5 μL of test compound (or media for determination of the MIC of the antibiotic in the absence of test compound). […] Absorbance was read at 540 nm (Multiskan Titertek mcc/340). Bacterial growth was scored as follows: […]
# as §6
# [8] = read-out: IC50 (μM) “C”, Table 2, Class C β-lactamase [P99]
# [9] = read-out: IC50 (μM) “C”, Class C β-lactamase [P99], Table 1
# [10] = Table 4, inhibitor 10 μg/ml, tested form: drawn as the phosphonate mono-anion, cou
compound,measurement,setting,value
O=P(O)(O)CNS(=O)(=O)c1cc2ccccc2o1,IC50,"[1]; read-out: IC50 (μM) “C”, Class C β-lactamase [P99], Table 1, tested form: Na salt",83 µM
same,Synergy Class C E. Cl,[2]; tested form: Na salt,8
O=[N+]([O-])c1ccc(/C=C/C(NS(=O)(=O)c2cccs2)P(=O)(O)O)cc1 (stereo not drawn),IC50,[3],> 200 µM
same,IC50,L-1 β-lactamase,> 200 µM
same,IC50,[1]; [8],128 µM
same,Synergy Class C E. Cl (ratio of antibiotic MIC without inhibitor to MIC with inhibitor),[2],0
CO/N=C(/C(=O)NCP(=O)(O)O)c1cccs1,Synergy (at μg/mL) Class A H. In. 10/1,[4],0
same,Synergy (at μg/mL) Class A St. A 10,"[5]; inhibitor at 10 μg/mL, tested form: drawn as the phosphonate monoanion, coun",0
same,IC50,"[1]; read-out: IC50 (μM) ""C"", class C β-lactamase, K = thousand, tested form: drawn as the phosphonate monoanion, coun",1600 µM
same,Synergy (at μg/mL) Class C E. Cl 10/1,[2]; inhibitor at 1 μg/mL (second figure of cell),0
same,Synergy (at μg/mL) Class C E. Cl 10/1,[2]; inhibitor at 10 μg/mL (first figure of cell),4
O=P(O)(O)CNS(=O)(=O)c1cc2ccccc2s1,IC50,[1]; [9],446 µM
same,Synergy Class C E. Cl,[2],2
O=P(O)(O)C(CCc1cccnc1)NS(=O)(=O)c1cccs1 (stereo not drawn),IC50,[3],> 200 µM
same,IC50,L-1 β-lactamase,> 200 µM
same,IC50,[1]; [8],84 µM
same,Synergy Class C E. Cl (ratio of antibiotic MIC without inhibitor to MIC with inhibitor),[2],0
O=P(O)(CNS(=O)(=O)c1cc2ccccc2s1)OCc1ccccc1,IC50,[1]; [9],96 µM
same,Synergy Class C E. Cl,[2],4
COc1cc(C(OP(=O)(O)CNS(=O)(=O)c2cc3c(Cl)ccc(Cl)c3s2)C(F)(F)F)ccc1F (stereo not drawn),Synergy at 10 μg/ml Ent. Faec.,[6],0
same,Synergy at 10 μg/ml Stap. Aureus,[5]; [10],0
same,Synergy at 10 μg/ml P99 Ent. Bact.,[7],0
same,IC50,"[1]; read-out: IC50 (μM) “C”, Table 4, some cells marked MD or (75 μM NC), tested form: drawn as the phosphonate mono-anion, cou",> 500 µM
same,Synergy at 10 μg/ml Ent. Cl.,[2]; [10],4
